Laboratory results: article PMC5963220
For at least one entry, the source does not settle the construct or the ends of the probe.

Tested on: IHF alpha subunit (IHFα) + IHF beta subunit (IHFβ)
Assay: EMSA
Settings: calf thymus DNA 0.5 ug, 50 mM Tris-HCl pH 8.0, 100 mM KCl, 1 mM DTT, 2.5 mM EDTA, 5% glycerol, 0.5 ug calf thymus DNA, 5 ug/ml BSA, 20 ng probe in 20 ul, room temperature 30 min, 6% native PAGE, recombinant protein, label: biotin, probe letters rebuilt from the primers and the genome

Sequence	binding result (completely shifted at 590 nM IHF)	binding result (two shifted bands with increasing IHF)
GAGTTTGACCTTCGATAGAGATATAACATGGAGTTGGCATTGCTCATTCCTTTCTAACTGGTTGTTTATCAGGCAACGGGTTAAGACAACCTTTGCCATTCGATAAAACGTTCGTGATGTAAGTGCGCTCAGCGCGAATTCAGTGAGTAAGGGAGCAAAGTCGATGCCACTTTGGCATTCATTTAAAATCAATTAGTTATATTTAAAACCTTGCCATTAGAGCAACAAACTGCCTTTGAACAAGCAAGATCTTGCTTGTCGGGCAAGGTTCACGTCGCTGGTTCAGGCCACTTGTTAATCTGTAGCACGTTGGTACACTTCTCTCTCATTTTTCGTCAAGGAAGGCTATTCTCA (double strand) [probe-tssD2a (wild-type tssD2_a promoter)]	binds	–
TTAGGAGCTACACTTCCTTCTTTAGACATATAACGTCTCCAAATACCTATGCCAGTCGTTGTCAATGAAATAGTTGTGTAAATATCTGATTGATAATACACATTAGAAATATCTTAATTATCTTATTTGATTTTTAGTAAATATAACTTCTTGAAATTGATTAATTCACCCGACTTCTCGTCAGACAAATATAACCATTGAATAATACAAGTTAAACTTACATATAAACTTTTATTTATAAAACTATGAATAAAGAGACAAGCCAATCTCCCTATTCCTGATATTCGAAAGCGAGCATATTCTATTCATTTAATAATGTTTTGTTGCACAAAAATCACAAGAATATGATCTTCACCCCAAAAACGATTACTTTTATCACACTTATTATCTATCGCTAATATTGAAATAAACTAAATATCCCAGAACAGATCATGGT (double strand) [VflT6SS2 major cluster promoter probe]	–	binds
